# Human monoclonal antibodies against the spike receptor-binding domain (heavy:light variable regions). IC50 against pseudoviruses bearing the spike of naturally observed variants; lower = stronger; >10 µg/ml means not reached at the top dose. No active / inactive call. The stated detection limit is 0.0005 µg/ml; values near or below 0.001 µg/ml lie at the floor of the assay.
# B1: BD55-5564 (protein)
# chain 1: QVQLVESGGGVVQPGRSLKLSCAASGFPFSTYAMHWVRQAPGKGLEWVAVISFDSNDEYYADSVKGRFTISRDNSKNTLYLQMNSLRAEDTAVYYCARAGVLRYFDWLLSSGFASWGQGTLVTVSS
# chain 2: DIQMTQSPSFLSASVGDRVTITCQASQDIRNYLNWYQQKPGKAPKLLIADASSLETGVPSRFSGSGSGTHFIITISSLQPEDIATYYCQQYYNLPSFGQGTKLEIK
# B2: BD55-5568 (protein)
# chain 1: QVQLVESGGGVVRPGRSLRISCVVSGFTFNTYSMHWVRQAPGKGLEWVAVISEDETNKNYADFAEGRFTISRDNSKNTVFLQMNRLRAEDTAVYYCARDRAYYDMLAGYSHYYVGLDVWGQGTTVTVSS
# chain 2: VVMTQSPLSLPVTLGQPASISCTSSQSLVHSDGDTYLSWFQQRPGQSPRRLIYKVSNRDSGVPDRFSGSGSGTEFTLTISRVEAEDVGVYYCMQATHWPPWTFGQGTKVEIK
# B3: BD55-5569 (protein)
# chain 1: QITLKESGPALVKPTQTLTLTCTFSGFSLTTSRVSVGWIRQPPGKALEWLALIYWDDDKRYSPSLKTRLTITKDTSKNQVVLTMTNMDPVDTATYYCAHIGGRGFQQLLHWFDPWGQGALVTVSS
# chain 2: QSVLSQPPSASGTPGQRVTISCSGSSSNIGSNTVNWYQQLPGTAPKLLIYSDDQRPSGVPDRFSGSKSGTSASLAISGLQSGDEADYYCASWDDSLNGPVFGGGTKLTVL
# B4: BD55-5575 (protein)
# chain 1: EVQLVESGGGLVQPGGSLRLSCVASGFTFSNYAMHWVRQAPGKGLEYVSSITSDGSGTFYANSVKDRFTISRDNSKNTLYLQLGSLRTEDMAVYFCSRESRVVVDATLDFWGQGTLVTVSS
# chain 2: DIQMTQSPSSLSASVGDRVTITCRASQSIARYLNWYQLKPGKAPKLLIYSASSLQGGVPSRFSGSGSGTDFTLTINGLQPEDFATYYCQQSYITPQYTFGQGTKLDMK
# B5: BD55-1075 (protein)
# chain 1: EVRLVESGGGLVKPGGSLRLSCAASGFVLDTYDMNWVRQAPGKGLEWVSSITTSGSYIYYADSVKGRFTISRDNAKNSVYLQMESLRAEDTALYYCARELGVYGDHFGDHWGQGTLVTVSS
# chain 2: QSVLTQPPSASGTPGQRVTISCSGSSSNIGTNSVNWYQQVPGTAPKLLIYTNIKRPSGVPDRFSGSKSGTSGSLAISGLQSEDEADYYCAAWDDSLNGYVFGAGTRVTVL
# B6: BD55-5594 (protein)
# chain 1: QVQLVQSGAEVKKPGSSVKVSCRASGGTFSSYGINWVRQAPGRGLEWMGRITPIPGIANYAQKFQGRVTITADKSTSTAYMELSSLRSDDTAVYYCARESPGYSGYDATTIDAFHFWGQGTMVTVSS
# chain 2: QSVLTQPPSVSGAPGQRVTISCTGSSSNIGAGYDVHWYQQLPGTAPKLLIYDNNNRPSGVPDRFSGSKSGTSASLAITGLQAEDEADYYCQSYDSRLSGSGVVFGGGTKLTVL
# B7: BD55-5599 (protein)
# chain 1: QVQLVQSGAEVKRPGSSVKVSCKASGGPFSSYAISWVRQAPGRGLEWMGRIIPILGITNYPQNFQGRVTLMADKSTSTVYMELSSLRSEDTAIYYCARDVEWSPDFLRGPRGGDYWGQGTLVTVSS
# chain 2: EIVLTQSPGTLSLSPGDRATLSCRASQSVRGSDLAWYQQRPGQAPRLLIYDASSRATGIPDRFSGSGSGTDFTLTISRLEPEDFAVYYCQQYGSSLSFTFGPGTKVEFK
# B8: BD55-5610 (protein)
# chain 1: EVQLVESGGGLIQPGRSLRLSCAASGFTFDDYALHWVRQPPGKGLQWVSGISWNGGDILYADSVKGRFTISRDNAKNSLFLQMNSLRADDTALYYCAKAPLGELLHNWFDSWGQGTLVTVSS
# chain 2: EIVLTQSPATLSLSPGERATLSCRASQSVSTYLAWYQQKPGQAPRLLIYDTSNRAAGTPARFSGGGFGTDFTLTIDSLEPEDFAVYYCQQRGNWLITFGQGTRLEIK
# B9: BD55-5623 (protein)
# chain 1: EVQLVQSGAEVKKPGESLKISCKGSGHSFTSQWIGWVRQMPGKGLEWMGIIYPGDSETKYSPSFQGQVTISADKSISTAYLQWSSLKASDTAMYYCASSGGLRWNFEYWGQGTQVTVSS
# chain 2: DIVMTQSPDSLAVSLGERATINCKSSQSVLYSSNNKNYLAWYQQKPGQPPKLLIYWASTRESGVPDRFSGSGSGTDFTLTISSLQAEDVAVYYCQQYYSTLYTFGPGTKLEIK
# B10: BD55-5625 (protein)
# chain 1: EVQVVESGGDLIQPGGSLRLSCAVSGFSVSDNYMNWVRQAPGKGLEWVSLIYRDGNTNYADSVKGRFTISRDNSKNTLYLQMNSLRAEDTAVYYCARVRTNLIMLFGVVTFESGHYFYYMDVWGTGTTVAVSS
# chain 2: QSVLTQPPSVSAAPGQKVSISCSGSSSNIANTDVSWYQQLPGTGPKLLIYDNDKRPSGISDRFSGSKSGTSATLGITGLHTGDEADYYCGTWDSSLSLYVFGSGTKVTVL
# B11: BD55-5630 (protein)
# chain 1: QVQLVQSGAEVKKPGASVKVSCKASGYTFTNYDINWVRQATGQGLEWMGWMNPNSGDTGYAHKFEGRVTMTRNTAINTAYMELSNLRSEDTAVYYCAIMYGSGSGALRYYYYVMDVWGQGTTVTVSS
# chain 2: DIQMTQSPSSLSASVGDRVTITCRASQSIDNNLNWYQQKPGKAPKLLIVAASSLQGGVPSRFSGAGSGTDFTLTINSLQPEDFAIYYCQQSYSFPGTFGPGIKVDIK
# B12: BD55-1084 (protein)
# chain 1: QVQLVQSGAEVKKPGASVKISCKASGYTFTNYHIHWVRQAPGQGLEWMGIINPSAGVTTYAQKFQGRVTMTSDASTSTVYMEVGSLRSDDTALYFCARGHTVTVAAIIYWGQGTLVTVSS
# chain 2: QTVVTQEASLTVSPGGAVTLTCASSTGAVTSTYFPNWFQQKPGQPPRALIYSTSNKHSWTPARFSGSLLGGKAALTLSGVQPEDEAVYYCLLYDGDAQHWVFGGGTKLTVL
# Molecular target: SARS-CoV-2 Omicron BA.1 spike pseudovirus
# Assay: pseudovirus neutralization IC50; higher = weaker neutralization
# Description: (§1)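 Single-round VSV luciferase pseudovirus mixed with antibody dilutions for 1 h and put on Huh-7 cells for about a day; IC50 from the dose curve.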
row,Binder,pseudovirus neutralization IC50 [µg/mL]
1,B1,> 10
2,B2,1.28
3,B3,> 10
4,B4,> 10
5,B5,> 10
6,B6,> 10
7,B7,0.00213
8,B8,> 10
9,B9,> 10
10,B10,3.54
11,B11,1.8
12,B12,> 10

# Molecular target: SARS-CoV-2 Omicron BA.2 spike pseudovirus
# Assay: as above
# Description: as §1
row,Binder,pseudovirus neutralization IC50 [µg/mL]
1,B1,> 10
2,B2,1.76
3,B3,> 10
4,B4,> 10
5,B5,> 10
6,B6,> 10
7,B7,0.00123
8,B8,> 10
9,B9,> 10
10,B10,5.47
11,B11,0.659
12,B12,> 10

# Molecular target: SARS-CoV-2 Omicron BA.2.75 spike pseudovirus
# Assay: as above
# Description: as §1
row,Binder,pseudovirus neutralization IC50 [µg/mL]
1,B1,> 10
2,B2,2.73
3,B3,> 10
4,B4,> 10
5,B5,> 10
6,B6,> 10
7,B7,0.00644
8,B8,> 10
9,B9,> 10
10,B10,3.42
11,B11,0.992
12,B12,> 10

# Molecular target: SARS-CoV-2 Omicron BA.5 spike pseudovirus
# Assay: as above
# Description: as §1
row,Binder,pseudovirus neutralization IC50 [µg/mL]
1,B1,> 10
2,B2,1.87
3,B3,> 10
4,B4,> 10
5,B5,> 10
6,B6,> 10
7,B7,> 10
8,B8,> 10
9,B9,> 10
10,B10,1.02
11,B11,2.22
12,B12,> 10

# Molecular target: SARS-CoV-2 Omicron BQ.1.1 spike pseudovirus
# Assay: as above
# Description: as §1
row,Binder,pseudovirus neutralization IC50 [µg/mL]
1,B1,> 10
2,B2,2.4
3,B3,> 10
4,B4,> 10
5,B5,> 10
6,B6,> 10
7,B7,> 10
8,B8,> 10
9,B9,> 10
10,B10,5.09
11,B11,1.51
12,B12,> 10

# Molecular target: SARS-CoV-2 Omicron XBB spike pseudovirus
# Assay: as above
# Description: as §1
row,Binder,pseudovirus neutralization IC50 [µg/mL]
1,B1,> 10
2,B2,1.3
3,B3,> 10
4,B4,> 10
5,B5,> 10
6,B6,> 10
7,B7,> 10
8,B8,> 10
9,B9,> 10
10,B10,4.2
11,B11,0.875
12,B12,> 10

# Molecular target: SARS-CoV-2 early D614G spike pseudovirus
# Assay: as above
# Description: as §1
row,Binder,pseudovirus neutralization IC50 [µg/mL]
1,B1,0.246
2,B2,0.257
3,B3,> 10
4,B4,> 10
5,B5,0.0344
6,B6,0.0373
7,B7,0.001
8,B8,0.906
9,B9,> 10
10,B10,1.65
11,B11,1.22
12,B12,0.00251
